A mixed list of measured activities; the numbers were collected in NIAID ChemDB.

All rows: tests in culture

Zone: diameter of growth inhibition. a–b is a range or a potency band. ECn: concentration that inhibits the pathogen or its effect by n%. Inhibition is in % at the dose shown (toxicity tests: loss of growth or viability). An empty or dashed field is not shown. Neighbouring rows are from separate reports. MIC50, MIC90 and the like: level of inhibition, or share of isolates inhibited.

| structure | dose | read-out | organism | changes | conditions | strain | cell line | read by | value |
|---|---|---|---|---|---|---|---|---|---|
| O=c1cnn([C@@H]2O[C@H](CO)[C@@H](O)[C@H]2O)c(=O)[nH]1 | - | EC50 | West Nile virus | - | - | E101 | VERO | cytopathic effect | 0.2 µg/mL |
| O[C@H](c1cc(C(F)(F)F)nc2c(C(F)(F)F)cccc12)[C@@H]1CCCCN1 | - | EC50 | Plasmodium falciparum | GNF-Pf4492-resistant PfATP4 A211T | - | GNF-Pf4492R-1 | - | SYBR Green / fluorescence | 0.0135 µM |
| COc1ccc(-c2oc3c4c(cc(O)c3c(=O)c2O)OC(C)(C)CC4)cc1 | - | EC50 | SIV | - | - | MAC251 | CEMx174 | PCR | 1.159 µM |
| Nc1nccc2c1ncn2[C@@H]1C=C[C@@H](O)[C@H]1O | - | EC50 | Sindbis virus | - | - | - | VERO | cytopathic effect | >400 µg/mL |
| C=C(C)CN(CC)c1c([N+](=O)[O-])cc(C(F)(F)F)cc1[N+](=O)[O-] | - | EC50 | Toxoplasma gondii | - | - | Ethalfluralin-resistant | - | - | 3 µM |
| NC(=O)c1ncn([C@@H]2O[C@H](CO)[C@@H](O)[C@H]2O)n1 | 4 µg/mL | inhibition | Respiratory syncytial virus | - | - | 46 | HEP-2 | plaque count | 57% |
| CO[C@H]1/C=C/O[C@@]2(C)Oc3c(C)c(O)c4c(O)c(c5c(c4c3C2=O)NC2(CCN(CC(C)C)CC2)N=5)=NC(=O)/C(C)=C\C=C\[C@H](C)[C@H](O)[C@@H](C)[C@@H](O)[C@@H](C)[C@H](OC(C)=O)[C@@H]1C | 1 µg/mL | inhibition | Encephalitozoon cuniculi | - | - | - | MRC-5 fibroblasts | cytopathic effect | 0% |
| CC[C@H](C)[C@H]1NC(=O)[C@@H](NC(=O)[C@@H](CC(C)C)NC)[C@@H](C)OC(=O)[C@H](Cc2ccc(OC)cc2)N(C)C(=O)[C@@H]2CCCN2C(=O)[C@H](CC(C)C)NC(=O)[C@@H](C)C(=O)[C@H](C(C)C)OC(=O)C[C@@H]1O | 1.25 µg/mL | inhibition | Dengue virus | - | - | TYPE 3 | LLC-MK2 | plaque count | 19.6% |
| CCOP(=O)(O)CC(OCn1ccc(=O)[nH]c1=O)C(C)O | - | EC50 | Sandfly fever virus | - | - | Sicilian strain Vero cells | - | cytopathic effect | >320 µg/mL |
| Nc1ncnc2c1ncn2C[C@@H](CF)OCP(=O)(O)O | - | EC50 | Human herpesvirus 6 | - | - | GS | HSB-2 | antigen / flow cytometry | >300 µM |
| O=c1[nH]cc(F)c(=O)[nH]1 | 2 µg/mL | inhibition | Encephalitozoon cuniculi | - | - | - | MRC-5 fibroblasts | cytopathic effect | 58% |
| Nc1ncnc2c1ncn2C[C@@H](CO)OCP(=O)(O)O | 0.1 µM | inhibition | Epstein-Barr virus | - | - | - | P3HR-1 | - | 7% |
| CCO/N=C/c1ccc(OCCC2CCN(c3ccc(C)nn3)CC2)cc1 | - | EC50 | Rhinovirus | - | - | FO2-3607 (sialoprotein receptor group 87) | KB | neutral red | 3.342 µM |
| O=c1[nH]c(=O)n([C@H]2C[C@H](O)[C@@H](CO)O2)cc1I | - | EC50 | Human herpesvirus 6 | - | - | GS | HSB-2 | antigen / flow cytometry | >1500 µM |
| NC(=O)c1ncn([C@@H]2O[C@H](CO)[C@@H](O)[C@H]2O)n1 | - | EC50 | Measles virus | - | - | SA | CV-1 | neutral red | 20 µg/mL |
| Nc1nc2c(ncn2CCC(CO)CO)c(=O)[nH]1 | - | EC50 | Human herpesvirus 6 | - | - | GS | HSB-2 | antigen / flow cytometry | >400 µM |
| C#CC[C@@H](C(=O)N[C@H](/C=C/C(=O)OCC)C[C@@H]1CCNC1=O)n1cccc(NC(=O)c2cc(C)on2)c1=O | 0.1 µM | inhibition | Rhinovirus | - | - | Serotype 31 | H1-HELA | cytopathic effect / XTT | 90% |
| CC[C@H]1OC(=O)[C@H](C)[C@@H](O[C@H]2C[C@@](C)(OC)[C@@H](O)[C@H](C)O2)[C@H](C)[C@@H](O[C@@H]2O[C@H](C)C[C@H](N(C)C)[C@H]2O)[C@](C)(OC)C[C@@H](C)C(=O)[C@H](C)[C@@H](O)[C@]1(C)O | - | MIC | Mycobacterium abscessus | - | - | X3 | - | broth dilution | 2 µg/mL |
| Nc1nccc2c1ncn2C[C@@H](CO)OCP(=O)(O)O | - | EC50 | Human herpesvirus 6 | - | - | GS | HSB-2 | antigen / flow cytometry | 1.2 µM |
| O=c1[nH]c(=O)n([C@H]2C[C@H](O)[C@@H](CO)O2)cc1-c1ccc(Cl)s1 | - | EC50 | Varicella zoster virus | - | - | OKA (TK+) | HEL | plaque count | 0.21 µM |
| N=C(N)c1ncn([C@@H]2O[C@H](CO)[C@@H](O)[C@H]2O)n1 | 10 µg/mL | inhibition | Influenza A virus | - | - | Influenza A/Victoria/3/75 (H3N2) | MDCK | virus yield | 90% |
| CC(=O)NC[C@H]1CN(c2ccc(N3CCN(C(=O)CO)CC3)c(F)c2)C(=O)O1 | - | MIC90 | Streptococcus pneumoniae | - | - | Penicillin-resistant | - | - | 0.25–0.5 µg/mL |
| Nc1ncnc2c1ncn2[C@@H]1O[C@H](CO)[C@H]1CO | - | EC50 | Varicella zoster virus | - | - | 13 isolates | HEL | plaque count | 4.6 µM |
| C[C@@H]1CC[C@H]2[C@@H](C)C(=O)O[C@@H]3OC4(C)CC[C@@H]1[C@]32OO4 | - | EC50 | Plasmodium falciparum | KAE678-resistant pfatp4 A184S/P990R | - | KAE678R-2 | - | SYBR Green / fluorescence | 0.0334 µM |
| C[C@H]1NCc2cc(-c3ccc4c(=O)c(C(=O)O)cn(C5CC5)c4c3OC(F)F)ccc21 | - | MIC90 | Haemophilus influenzae | - | - | 35 strains | - | - | 0.03 µg/mL |
| NC(=O)c1ncn([C@@H]2O[C@H](CO)[C@@H](O)[C@H]2O)n1 | - | EC50 | Respiratory syncytial virus | - | - | LONG | HEP-2 | plaque count | 10.5 µM |
| Nc1nc(=O)n([C@@H]2O[C@H](CO)[C@@H](O)[C@@H]2F)cc1I | - | EC50 | Human herpesvirus 6 | - | - | GS | HSB-2 | cytopathic effect | >1 µM |
| Nc1ncnc2c1ncn2[C@@H]1O[C@H](CO)[C@@H](O)[C@@H]1O | - | EC50 | Varicella zoster virus | - | - | YS (TK+) | HEL | plaque count | 7.9 µM |
| CN(C)c1cc(NC(=O)CNC(C)(C)C)c(O)c2c1C[C@H]1C[C@H]3[C@H](N(C)C)C(=O)C(C(N)=O)=C(O)[C@@]3(O)C(=O)C1=C2O | - | MIC | Mycobacterium massiliense | - | - | V29 | - | broth dilution | 1 µg/mL |
| CN[C@@H]1[C@H](O[C@H]2[C@H](O[C@H]3[C@H](O)[C@@H](O)[C@H](N=C(N)N)[C@@H](O)[C@@H]3N=C(N)N)O[C@@H](C)[C@]2(O)C=O)O[C@@H](CO)[C@H](O)[C@H]1O | 250 µg/disc | zone | Klebsiella pneumoniae | - | - | ESBL-3967 | - | agar diffusion | 12 mm |
| Cc1cn([C@H]2C[C@H](N=[N+]=[N-])[C@@H](COP(=O)(O)OC[C@H]3OC(O)[C@H](O)[C@@H](O)[C@@H]3O)O2)c(=O)[nH]c1=O | 25 µM | inhibition | HIV-1 | - | 22 d | LAV-Bru | CEM | RT activity | 92% |
| Cc1cn([C@@H]2O[C@H](CO)[C@@H](O)[C@@H]2O)c(=O)[nH]c1=O | - | EC50 | Varicella zoster virus | - | - | 07/1 (TK-) | HEL | plaque count | 114.3 µM |
| Cc1cn([C@H]2C[C@H](N=[N+]=[N-])[C@@H](CO)O2)c(=O)[nH]c1=O | 0.2 µM | inhibition | HIV-1 | - | 11 d | LAV-Bru | U-937 | RT activity | 0% |
| C[C@@H]1[C@H](O)[C@@H](C)/C=C/C=C/CC/C=C/C=C/C=C/C=C/C(O[C@H]2O[C@H](C)[C@@H](O)[C@H](N)[C@@H]2O)CC2O[C@](O)(CC(O)C(O)CCC(O)CC(O)CC(O)CC(=O)O[C@H]1C)CC(O)C2C(=O)O | 100 µg/mL | zone | Candida spp. | - | - | Candida inconspicua | - | agar diffusion / agar | 0 mm |
| O=c1[nH]c(=O)n([C@H]2C[C@H](O)[C@@H](CO)O2)cc1/C=C/Br | 0.01 µM | inhibition | Epstein-Barr virus | - | - | - | P3HR-1 | - | 4% |
| Nc1ccc(S(=O)(=O)Nc2ncccn2)cc1 | - | EC50 | Toxoplasma gondii | - | - | - | - | - | <3 µg/mL |
| O=c1[nH]c(=O)n([C@H]2C[C@H](O)[C@@H](CO)O2)cc1/C=C/Br | - | EC50 | Human herpesvirus 6 | - | - | GS | HSB-2 | cytopathic effect | >1 µM |
| Nc1nccc2c1ncn2C[C@@H](CO)OCP(=O)(O)O | - | EC50 | Varicella zoster virus | - | - | 07/1 (TK-) | HEL | plaque count | 0.12 µM |
| S=c1nc[nH]c2c1ncn2C1CCCO1 | 100 µM | inhibition | Dengue virus | - | - | TYPE 2 | LLC-MK2 | plaque count | 0% |
| CO[C@@H]1C[C@@H](C[C@H]2CC[C@H](C)[C@H]([C@@H](C)C(=O)O)O2)O[C@]2(O[C@](C)([C@H]3CC[C@@](C)([C@@H]4O[C@@H]([C@H]5O[C@@](O)(CO)[C@H](C)C[C@@H]5C)C[C@@H]4C)O3)C[C@H]2C)[C@@H]1C | 0.05 µg/mL | inhibition | Toxoplasma gondii | - | - | RH | - | uracil uptake / radiometric | 100% |
| CC(C)CCOc1ccc(C2CC(=O)c3c(O)cc(O)cc3O2)cc1 | 100 µg/mL | zone | Candida dubliniensis | - | - | - | - | agar diffusion / agar | 0 mm |
| Cc1cn([C@H]2C[C@H](N=[N+]=[N-])[C@@H](COP(=O)(O)OC[C@H]3OC(O)[C@@H](O)[C@@H](O)[C@@H]3O)O2)c(=O)[nH]c1=O | 25 µM | inhibition | HIV-1 | - | 26 d | LAV-Bru | CEM | RT activity | 94% |
| Cc1cn(COC(CP(=O)(O)O)C(O)CO)c(=O)[nH]c1=O | - | EC50 | Sandfly fever virus | - | - | Sicilian strain Vero cells | - | cytopathic effect | >320 µg/mL |
| O=c1[nH]c(=O)n([C@@H]2O[C@H](CO)[C@@H](O)[C@@H]2O)cc1/C=C/Br | - | EC50 | Human herpesvirus 6 | - | - | GS | HSB-2 | cytopathic effect | >75 µM |
| Cc1cn(COC(CP(=O)(O)O)C(C)O)c(=O)[nH]c1=O | - | EC50 | Sandfly fever virus | - | - | Sicilian strain Vero cells | - | cytopathic effect | >320 µg/mL |
| Nc1nc(N)c2nnn(C[C@@H](CO)OCP(=O)(O)O)c2n1 | - | EC50 | Human herpesvirus 6 | - | - | GS | HSB-2 | cytopathic effect | >300 µM |
| CC[C@H]1OC(=O)[C@H](C)[C@@H](O[C@H]2C[C@@](C)(OC)[C@@H](O)[C@H](C)O2)[C@H](C)[C@@H](O[C@@H]2O[C@H](C)C[C@H](N(C)C)[C@H]2O)[C@](C)(O)C[C@@H](C)/C(=N\OCOCCOC)[C@H](C)[C@@H](O)[C@]1(C)O | - | EC50 | Encephalitozoon cuniculi | - | - | - | MRC-5 fibroblasts | cytopathic effect | >100 µg/mL |
| COc1cc(C[C@H](C)[C@H](C)Cc2ccc(O)c(O)c2)ccc1O | - | MIC100 | Candida lusitaniae | - | - | CCC 131-2000 | - | broth dilution | 125 µg/mL |
| Nc1nccc2c1ncn2[C@@H]1C=C(CO)[C@@H](O)[C@H]1O | - | EC50 | Semliki Forest virus | - | - | - | VERO | cytopathic effect | >400 µg/mL |
| NC[C@@H]1O[C@H](O[C@H]2[C@@H](O)[C@H](O[C@@H]3[C@@H](O)[C@H](N)C[C@H](N)[C@H]3O[C@H]3O[C@H](CO)[C@@H](O)[C@H](O)[C@H]3N)O[C@@H]2CO)[C@H](N)[C@@H](O)[C@@H]1O | 1000 µg/mL | inhibition | Encephalitozoon cuniculi | - | - | - | MRC-5 fibroblasts | cytopathic effect | 1% |
| OC(Cn1cncn1)(Cn1cncn1)c1ccc(F)cc1F | - | MIC | Candida albicans | - | - | YL 336 | - | broth dilution | 512 µg/mL |
| CC(C)=CCOc1ccc(C2CC(=O)c3ccc(O)cc3O2)cc1 | 100 µg/mL | zone | Candida spp. | - | - | Candida inconspicua | - | agar diffusion / agar | 0 mm |
| CCn1cc(C(=O)O)c(=O)c2cc(F)c(N3CCN(C)CC3)cc21 | - | EC50 | Encephalitozoon cuniculi | - | - | - | MRC-5 fibroblasts | cytopathic effect | >20 µg/mL |

Repeating the first 3 entries:

O=c1cnn([C@@H]2O[C@H](CO)[C@@H](O)[C@H]2O)c(=O)[nH]1 ; read-out: EC50 ; organism: West Nile virus ; strain: E101 ; cell line: VERO ; read by: cytopathic effect ; value: 0.2 µg/mL
O[C@H](c1cc(C(F)(F)F)nc2c(C(F)(F)F)cccc12)[C@@H]1CCCCN1 ; read-out: EC50 ; organism: Plasmodium falciparum ; changes: GNF-Pf4492-resistant PfATP4 A211T ; strain: GNF-Pf4492R-1 ; read by: SYBR Green / fluorescence ; value: 0.0135 µM
COc1ccc(-c2oc3c4c(cc(O)c3c(=O)c2O)OC(C)(C)CC4)cc1 ; read-out: EC50 ; organism: SIV ; strain: MAC251 ; cell line: CEMx174 ; read by: PCR ; value: 1.159 µM